Pooled drug test results. Numbers come from NIAID ChemDB, via PubChem.

All rows: whole-cell or culture tests; agent: Candida albicans; endpoint: MIC50

Rows are shuffled and stem from different studies.

smiles | strain | method | setting | result
CC[C@@H]([C@H](C)O)n1ncn(-c2ccc(N3CCN(c4ccc(OC[C@@H]5CO[C@@](Cn6cncn6)(c6ccc(F)cc6F)C5)cc4)CC3)cc2)c1=O | 10 strains (fluconazole-resistant) |  |  | 0.5 µg/mL
CC[C@@H]([C@H](C)O)n1ncn(-c2ccc(N3CCN(c4ccc(OC[C@@H]5CO[C@@](Cn6cncn6)(c6ccc(F)cc6F)C5)cc4)CC3)cc2)c1=O | 660 isolates |  |  | 0.03 µg/mL
Cc1ccc(-c2c3c(N)c4c(nc3nc3c2c(C)nn3-c2ccccc2)CCC4)cc1 | CCC 127 | broth dilution / absorbance |  | 31.2 µg/mL
OC[C@H]1CO[C@](Cn2ccnc2)(c2ccc(-c3ccccc3)cc2)O1 | 44 strains |  |  | 64 µg/mL
C=CCSS(=O)CC=C | Clinical Isolate 3072 | broth dilution |  | 0.1 µg/mL
N=C(N)N1CCN(Cc2cccnc2SCc2cccc(-c3ccccc3)c2)CC1 | SC5314 CAI |  |  | 20 µg/mL
OC(Cn1cncn1)(Cn1cncn1)c1ccc(F)cc1F | Isolate M27-T-micro |  | 24 h | 0.39 µg/mL
N=C(N)N1CCN(Cc2cccnc2SCc2ccc(Cl)cc2)CC1 | SC5314 CAI |  |  | 75 µg/mL
CC(=O)N1CCN(c2ccc(OC[C@H]3CO[C@](Cn4ccnc4)(c4ccc(-c5ccccc5)cc4)O3)cc2)CC1 | 44 strains |  |  | >256 µg/mL
CC(C)=CCN=C(N)NCCCCCCCN1CCCCCCCCN=C(N)NC1=O | 4T |  |  | 20 µM
CCCCCCCCCCCCCCCC(=O)NC1CC(O)C(O)NC(=O)C2C(O)C(C)CN2C(=O)C(C(O)CC(N)=O)NC(=O)C(C(O)C(O)c2ccc(O)c(OS(=O)(=O)O)c2)NC(=O)C2CC(O)CN2C(=O)C(C(C)O)NC1=O | FP582 |  |  | 0.025 µg/mL
NC(=NCc1ccccc1)NCCCCCCCN1CCCCCCCCN=C(N)NC1=O | ATCC 60193 |  |  | 2.5 µM
COC(/C=C/c1ccccc1)=C1/C(=O)C=C(C)C1=O | Isolate 2 azole-resistant |  |  | 0.9 µg/mL
N#Cc1ccccc1CSc1ncccc1CN1CCN(C(=N)N)CC1 | SC5314 CAI |  |  | >100 µg/mL
C[C@H]1[C@H](O)[C@@H](C)/C=C/C=C/C=C/C=C/C=C/C=C/C=C/[C@H](O[C@@H]2O[C@H](C)[C@@H](O)[C@H](N)[C@@H]2O)C[C@@H]2O[C@](O)(C[C@@H](O)C[C@@H](O)CC[C@H](O)[C@@H](O)C[C@@H](O)CC(=O)O[C@H]1C)C[C@H](O)[C@H]2C(=O)O | 37 isolates |  |  | 0.25 µg/mL
C/C=C/CN=C(N)NCCCCCCCN1CCCCCCCCN=C(N)NC1=O | 53T |  |  | 2.5 µM
CCCCCCCCCCCCCCCC(=O)NC1CC(O)C(O)NC(=O)C2C(O)C(C)CN2C(=O)C(C(O)CC(N)=O)NC(=O)C(C(O)Cc2ccc(O)c(OS(=O)(=O)O)c2)NC(=O)C2CC(O)CN2C(=O)C(C(C)O)NC1=O |  |  |  | 0.008 µg/mL
C=C(C)CN=C(N)NCCCCCCCN1CCCCCCCCN=C(N)NC1=O | 53T |  |  | 40 µM
Clc1ccc(C(Cn2ccnc2)OCc2csc3c(Cl)cccc23)c(Cl)c1 | 63 isolates | visual reading | 24 h | 0.5 µg/mL
N=C(N)N1CCN(Cc2cccnc2SCc2c(F)cc(F)cc2F)CC1 | SC5314 CAI |  |  | >100 µg/mL
CC(=O)OCC1C=C(c2ccc(Cl)c(Cl)c2)C(=O)O1 | 16 isolates fluconazole-susceptible |  |  | 2 µg/mL
OC[C@@H]1CO[C@](Cn2ccnc2)(c2ccc(-c3ccccc3)cc2)O1 | 44 strains |  |  | 128 µg/mL
Nc1ncccc1-c1cc(Cc2ccc(COc3ccccn3)cc2)no1 | IFM49971 | broth dilution | 10% human serum | 0.016 µg/mL
Nc1[nH]c(=O)ncc1F | 10 isolates azole-resistant |  |  | 0.16 µg/mL
CCC(C)n1ncn(-c2ccc(N3CCN(c4ccc(OC[C@H]5CO[C@](Cn6cncn6)(c6ccc(Cl)cc6Cl)O5)cc4)CC3)cc2)c1=O |  | broth dilution |  | 0.016 µg/mL
C[C@@H](c1ncncc1F)[C@](O)(Cn1cncn1)c1ccc(F)cc1F | 32 strains |  |  | 0.06 µg/mL
C#CCNC(N)=NCCCCCCCN1CCCCCCCCN=C(N)NC1=O | 4T |  |  | 80 µM
CC(=O)N1CCN(c2ccc(OC[C@H]3CO[C@](Cn4ccnc4)(c4ccc(Cl)cc4Cl)O3)cc2)CC1 | 50 isolates |  |  | 0.01 µg/mL
CCCCCCCCCCCCCCCC(=O)N[C@H]1C[C@@H](O)[C@@H](O)NC(=O)[C@@H]2[C@@H](O)[C@@H](C)CN2C(=O)[C@H]([C@@H](C)O)NC(=O)[C@H]([C@H](O)[C@@H](O)c2ccc(O)cc2)NC(=O)[C@@H]2C[C@@H](O)CN2C(=O)[C@H]([C@@H](C)O)NC1=O | FP578 |  |  | 0.008 µg/mL
COc1ccc(-c2c3c(N)c4c(nc3nc3c2c(C)nn3-c2ccccc2)CCCCC4)cc1 | ATCC 10231 | broth dilution / absorbance |  | 125 µg/mL
c1ccc(-c2ccc(C(c3ccccc3)n3ccnc3)cc2)cc1 | 16 strains |  |  | 2 µg/mL
N=C(N)N1CCN(Cc2cccnc2SCc2cccc([N+](=O)[O-])c2)CC1 | SC5314 CAI |  |  | >100 µg/mL
Clc1ccccc1C(c1ccccc1)(c1ccccc1)n1ccnc1 | 16 strains |  |  | 0.5 µg/mL
Cc1ccc(-c2c3c(N)c4c(nc3nc3c2c(C)nn3-c2ccccc2)CCCCC4)cc1 | CCC 129 | broth dilution / absorbance |  | 31.2 µg/mL
C[C@H]1[C@H](O)[C@@H](C)/C=C/C=C/C=C/C=C/C=C/C=C/C=C/[C@H](O[C@@H]2O[C@H](C)[C@@H](O)[C@H](N)[C@@H]2O)C[C@@H]2O[C@](O)(C[C@@H](O)C[C@@H](O)CC[C@H](O)[C@@H](O)C[C@@H](O)CC(=O)O[C@H]1C)C[C@H](O)[C@H]2C(=O)O | 9 isolates fluconazole-resistant |  |  | 0.125 µg/mL
CCC(C)n1ncn(-c2ccc(N3CCN(c4ccc(OC[C@H]5CO[C@](Cn6cncn6)(c6ccc(Cl)cc6Cl)O5)cc4)CC3)cc2)c1=O | Fluconazole-resistant |  |  | 1 µg/mL

The last 4 rows once more:

{"smiles": "Clc1ccccc1C(c1ccccc1)(c1ccccc1)n1ccnc1", "strain": "16 strains", "result": "0.5 µg/mL"}
{"smiles": "Cc1ccc(-c2c3c(N)c4c(nc3nc3c2c(C)nn3-c2ccccc2)CCCCC4)cc1", "strain": "CCC 129", "method": "broth dilution / absorbance", "result": "31.2 µg/mL"}
{"smiles": "C[C@H]1[C@H](O)[C@@H](C)/C=C/C=C/C=C/C=C/C=C/C=C/C=C/[C@H](O[C@@H]2O[C@H](C)[C@@H](O)[C@H](N)[C@@H]2O)C[C@@H]2O[C@](O)(C[C@@H](O)C[C@@H](O)CC[C@H](O)[C@@H](O)C[C@@H](O)CC(=O)O[C@H]1C)C[C@H](O)[C@H]2C(=O)O", "strain": "9 isolates fluconazole-resistant", "result": "0.125 µg/mL"}
{"smiles": "CCC(C)n1ncn(-c2ccc(N3CCN(c4ccc(OC[C@H]5CO[C@](Cn6cncn6)(c6ccc(Cl)cc6Cl)O5)cc4)CC3)cc2)c1=O", "strain": "Fluconazole-resistant", "result": "1 µg/mL"}

Blank or dashed fields: not listed here. A number after MIC or MFC names an inhibition level or a share of isolates.